The source of these data is PubChem BioAssay AID2606 (The Scripps Research Institute Molecular Screening Center, 2010).

By UniProt entry, the sequences of proteins in these tests, tags left out. Where a name states a change or a piece, a line headed by the entry shows the natural chain unless it says otherwise.
UniProt P9WHR9: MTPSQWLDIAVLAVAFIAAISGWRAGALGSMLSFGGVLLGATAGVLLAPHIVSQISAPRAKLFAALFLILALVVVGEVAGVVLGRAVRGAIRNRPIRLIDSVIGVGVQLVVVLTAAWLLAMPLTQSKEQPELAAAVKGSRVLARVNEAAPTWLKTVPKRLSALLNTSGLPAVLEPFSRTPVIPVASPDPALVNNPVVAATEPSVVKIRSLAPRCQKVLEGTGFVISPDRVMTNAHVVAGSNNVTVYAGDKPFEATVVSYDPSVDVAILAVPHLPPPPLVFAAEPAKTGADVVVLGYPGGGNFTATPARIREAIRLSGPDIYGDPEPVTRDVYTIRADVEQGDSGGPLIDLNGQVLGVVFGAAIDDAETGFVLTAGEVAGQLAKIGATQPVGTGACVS

The list shows a part of the results, in another mix than the full data. The source made the active and inactive calls. Cut-off read from the data, not from the text of the source: active = inhibition above about 38%; inactive = the rest.

The assay deals with Serine protease Rv3671c (Mycobacterium tuberculosis (strain ATCC 25618 / H37Rv)) (UniProt P9WHR9). Kind of assay: inhibition of M. tuberculosis membrane protease Rv3671c – biochemical, fluorescence polarization, M. tuberculosis H37Rv, primary screen (AID 2606).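 Note: extracellular domain of Rv3671c used as enzyme; 0% = enzyme with DMSO and 100% = no enzyme.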 To be noted: at 5.96 µM; hits give high values. For orientation: Fluorescence polarisation rises when a labelled molecule tumbles more slowly, as on binding a larger partner.
Take `CCOP1(=S)c2c(C)nn(CCC#N)c2N=C(c2ccc(F)cc2)N1C` (configuration not stated): the inhibition (in general, the change of the read-out against control, counted positive when it falls) is inactive: -3.69%.

Turning to `CN(C(=O)Cc1ccccc1)[C@@H]1CC[C@]2(CCCO2)C[C@H]1N1CCCC1`, the inhibition is inactive: -3.61%.

As to `N#CCCN(C(=O)COC(=O)C(O)(c1ccccc1)c1ccccc1)c1ccc(F)cc1`, the inhibition was inactive: -4.08%.

Consider `CS(=O)(=O)c1cc([N+](=O)[O-])c2no[n+]([O-])c2c1`, for which the inhibition is inactive: -1.98%.

`O=P(Nc1nccs1)(Oc1ccccc1)Oc1ccccc1`: the inhibition was inactive: -1.33%.

Turning to `O=P(Nc1nccs1)(c1ccccc1)c1nc2ccccc2s1` (configuration not stated), the inhibition is inactive: -8.91%.

Take `CCOP1(=S)c2c(C)nn(CCC#N)c2N=C(c2ccccc2F)N1C` (configuration not stated): the inhibition is inactive: 0.72%.

Take `Nc1ccccc1[As](=O)(O)c1ccccc1`: the inhibition is inactive: -10.1%.

As to `O=C(O)COc1ccc([As](=O)(O)O)cc1[N+](=O)[O-]`, the inhibition was inactive: -9.33%.

As for `Cc1ccc(OP(=O)(Nc2ccccn2)Oc2ccc(C)cc2)cc1`, the inhibition was inactive: 0.82%.

For `CC(=O)NC(SC(=S)N(CC(C)C)CC(C)C)C(Cl)(Cl)Cl` (configuration not stated), the inhibition is inactive: 3.97%.

As for `COC(=O)c1cc2c(s1)N=C(c1ccccc1)N(C)P2(=O)N1CCOCC1` (configuration not stated), the inhibition was inactive: 8.65%.

As for `CCC(=O)N1C2C3N(C(=O)CC)C1C1N(C(=O)CC)C(C(N1C(=O)CC)N3C(=O)CC)N2C(=O)CC`, the inhibition was inactive: 4.49%.

As to `O=C(OC1CN2CCC1CC2)c1ccccc1` (configuration not stated), the inhibition is inactive: 0.32%.

For the molecule `CN(C)C(=O)Oc1noc2ccccc12`, the inhibition was inactive: 2.36%.

Consider `CC(NC(=O)COC(=O)C(O)(c1ccccc1)c1ccccc1)c1ccccc1` (configuration not stated), for which the inhibition was inactive: -4.25%.

Regarding `Cc1ccccc1OP(=O)(Nc1ccccn1)Oc1ccccc1C`, the inhibition was inactive: -1.8%.

Take `CCNC(=S)/N=C(\N)N[N+](=O)[O-]`: the inhibition is inactive: -2.93%.

For the molecule `O=C(NC1CCS(=O)(=O)C1)NP(=S)(Oc1ccccc1)Oc1ccccc1` (configuration not stated), the inhibition is inactive: 4.57%.

For the molecule `CCOC(=O)NC(Sc1ccccc1)C(Cl)(Cl)Cl` (configuration not stated), the inhibition is inactive: -8.37%.

Take `Cc1ccc(NP(=O)(Oc2cccc(C)c2)Oc2cccc(C)c2)nc1`: the inhibition is inactive: -4.67%.

For `c1ccc(-c2nn[nH]n2)c(-c2nn[nH]n2)c1`, the inhibition was inactive: 4.79%.

Consider `CC(=O)c1ccc(N2CC2c2ccncc2)cc1` (configuration not stated), for which the inhibition is inactive: 2.54%.

In the case of `C[C@H]1OP(=O)(Oc2ccccc2)C[C@@H]2O[C@@H]21` (some centres not stated), the inhibition was inactive: -2.14%.

For the molecule `C[C@@H]1C=CCP(=O)(Oc2ccccc2)O1` (some centres not stated), the inhibition was inactive: 0.65%.

Regarding `Cc1ccccc1CN(C)C(=O)COC(=O)C(O)(c1ccccc1)c1ccccc1`, the inhibition was inactive: 3.15%.

As to `CC(=O)Nc1ccc(Oc2c([N+](=O)[O-])cc([N+](=O)[O-])cc2[N+](=O)[O-])cc1`, the inhibition was inactive: 8.34%.

On to `CC(=O)Nc1ccc([As](=O)(O)O)c(O)c1`, for which the inhibition is inactive: -15.7%.

As to `CCOc1ccc(C2=NCC(CBr)S2)cc1` (configuration not stated), the inhibition was inactive: -3.45%.

Consider `O=P1(Nc2nc3ccc(Cl)cc3s2)COc2ccccc2O1` (configuration not stated), for which the inhibition is inactive: -1.35%.

On to `CC(C)(C)C(=O)NC(Sc1ccccc1)C(Cl)(Cl)Cl` (configuration not stated), for which the inhibition was inactive: -2.94%.

As to `CC(C)C(=O)NC(Sc1ccccc1)C(Cl)(Cl)Cl` (configuration not stated), the inhibition is inactive: -9.98%.

Turning to `O=P(Nc1nccs1)(c1ccccc1)c1ccccc1`, the inhibition is inactive: 7.87%.

Take `c1nnnn1CCn1cnnn1`: the inhibition was inactive: -4.94%.

Turning to `O=[N+]([O-])c1ccc(O)c(/C=N/Nc2ccc([N+](=O)[O-])cc2[N+](=O)[O-])c1`, the inhibition is inactive: 0.35%.

`O=[N+]([O-])c1ncn(CCn2cnc([N+](=O)[O-])n2)n1`: the inhibition is inactive: 5.18%.

With `CC(=O)NC(SC(=S)N(C)C)C(Cl)(Cl)Cl` (configuration not stated), the inhibition is inactive: -6.31%.

Regarding `O=[As](O)(c1ccccc1)c1ccc(O)cc1`, the inhibition is inactive: -0.14%.

Turning to `C(Cc1nn[nH]n1)Cc1nn[nH]n1`, the inhibition was inactive: 7.08%.

For the molecule `Nc1ccc([As](=O)(O)c2ccc([N+](=O)[O-])cc2)cc1`, the inhibition was inactive: -9.67%.

As to `O=C(OC1CN2CCC1CC2)c1cccc(Cl)c1` (configuration not stated), the inhibition is inactive: 4.08%.

As for `O=P(Nc1ccccn1)(c1ccc(Br)cc1)c1ccc(Br)cc1`, the inhibition was inactive: 4.1%.

For the molecule `CN(C)C1(CNC(=O)c2ccc(Cl)c(S(N)(=O)=O)c2)CCCCC1`, the inhibition is inactive: 5.08%.

Consider `C[C@H]1OP(=O)(Oc2ccccc2)[C@H](O)[C@H](O)[C@H]1N=[N+]=[N-]` (some centres not stated), for which the inhibition was inactive: 8.59%.

For `O=P(Nc1nc2ccccc2s1)(c1ccccc1)c1ccccc1`, the inhibition was inactive: 0.61%.

`CC(C)(C)C(=O)NC(Sc1ccncn1)C(Cl)(Cl)Cl` (configuration not stated): the inhibition was inactive: -2.98%.

With `O=[N+]([O-])c1ncn(CCn2ncnc2[N+](=O)[O-])n1`, the inhibition is inactive: 4.72%.

`O=[N+]([O-])c1cccc(NC2=NCC(CBr)S2)c1` (configuration not stated): the inhibition is inactive: 0.1%.

In the case of `O=C(Nc1cc([As](=O)(O)O)ccc1O)c1ccccc1`, the inhibition was inactive: -2.45%.

With `C[N+]1=C2C=CC=CC=C2SC12C([N+](=O)[O-])=CC([N+](=O)[O-])=C[C-]2[N+](=O)[O-]` (configuration not stated), the inhibition was inactive: 18.3%.

In the case of `Nc1ccc([As](=O)(O)c2ccc(N)cc2)cc1`, the inhibition was inactive: -1.06%.

On to `CCN(/C(=N/P(=O)(N1CCOCC1)N1CCOCC1)N1CCOCC1)c1ccc(OC)cc1`, for which the inhibition was inactive: 5.32%.

On to `CN(C)C(=O)OCCc1n(C)cc[n+]1C`, for which the inhibition is inactive: -3.72%.

As to `CC(C)=N/N=C(\N)N[N+](=O)[O-]`, the inhibition was inactive: -3.74%.

`CC1CCN(C(=O)Oc2c(Cl)cc(Cl)c3cccnc23)CC1`: the inhibition was inactive: -6.12%.

Take `COc1ccc(C2=NCC(CBr)S2)cc1` (configuration not stated): the inhibition was inactive: 1.69%.

`O=[N+]([O-])c1cccc2n[nH]nc12`: the inhibition was inactive: -2.46%.

With `CC(=O)N1C2C3N(C(C)=O)C1C1N(C(C)=O)C(C(N1C(C)=O)N3C(C)=O)N2C(C)=O`, the inhibition is inactive: 0.82%.

In the case of `CCc1nc2c(n1)c1c(non1O)c1c2no[n+]1[O-]`, the inhibition is inactive: 7.71%.

Take `O=[N+]([O-])c1cc([N+](=O)[O-])c(CCNc2ccccc2)c([N+](=O)[O-])c1`: the inhibition was active: 49.6%.

Regarding `Cc1ccc(NP(=O)(Oc2ccccc2)Oc2ccccc2)nc1`, the inhibition is inactive: -6.93%.

As to `Nc1cc(N)c2nonc2c1[N+](=O)[O-]`, the inhibition was inactive: -7.17%.

As for `CC(C)CC(=O)NC(Sc1ccc(Cl)cc1)C(Cl)(Cl)Cl` (configuration not stated), the inhibition was inactive: 0.62%.

In the case of `O=C(NC(Sc1ccncn1)C(Cl)(Cl)Cl)c1ccccc1` (configuration not stated), the inhibition was inactive: -3.64%.

Turning to `Cc1c2non([O-])c-2c(C)[n+](=O)[n+]1[O-]`, the inhibition was inactive: -1.17%.

Consider `Oc1ccccc1CNc1ccccn1`, for which the inhibition was inactive: 6.2%.

Regarding `NC(=O)c1cc([N+](=O)[O-])cc([N+](=O)[O-])c1N`, the inhibition was inactive: 3.97%.

`Cc1ccc(N/C(=N/P(=O)(N2CCOCC2)N2CCOCC2)N2CCOCC2)cc1`: the inhibition is inactive: 1.4%.

Take `CN(C(=O)Cc1ccc(Cl)c(Cl)c1)[C@H]1CCCC[C@H]1N1CCCC1`: the inhibition was inactive: -0.49%.

Regarding `Cc1ccc(OP(=O)(Nc2nccs2)Oc2ccc(C)cc2)cc1`, the inhibition is inactive: -1.85%.

In the case of `COc1ccccc1OP(=O)(Nc1ccc(C)cn1)Oc1ccccc1OC`, the inhibition is inactive: -4.63%.

In the case of `CN1CCCC(OC(=O)C(c2ccccc2)c2ccccc2)C1` (configuration not stated), the inhibition was inactive: -3.57%.

In the case of `Clc1ccc(Cl)c(NC2=NCC(CBr)S2)c1` (configuration not stated), the inhibition was inactive: -3.05%.

Consider `O=[N+]([O-])c1cc([N+](=O)[O-])c(CCN2CCOCC2)c([N+](=O)[O-])c1`, for which the inhibition is inactive: 28.8%.

In the case of `CCN(N=Nc1nonc1N)c1nonc1N`, the inhibition was inactive: -6.7%.

Regarding `CC(=O)Nc1ccc([As](=O)(O)O)cc1`, the inhibition is inactive: -4.62%.

Regarding `O=C(O)c1ccccc1[As](=O)(O)O`, the inhibition is inactive: -9.87%.

As to `O=P(Nc1nc2ccc(Cl)cc2s1)(c1ccccc1)c1ccccc1`, the inhibition is inactive: 1.61%.

Take `Cc1ccc(NP(=O)(Oc2ccccc2F)Oc2ccccc2F)nc1`: the inhibition was inactive: -5.25%.

As for `CN(C(=O)Cc1ccc(Cl)c(Cl)c1)[C@H]1CCCC[C@@H]1N1CCCC1`, the inhibition was inactive: -2.77%.

Take `Cc1cc(SC(NC(=O)c2ccc(F)cc2)C(Cl)(Cl)Cl)ncn1` (configuration not stated): the inhibition is inactive: 1.03%.

Regarding `CCOP(=O)(Nc1ccccc1)OCC`, the inhibition was inactive: 16.5%.
